PubChem BioAssay AID1259414 | Drosophila RNAi Screening Center, 2018

Assay: 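Genome-wide screen for host control of endosymbiont load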 (primary screen)
System: Drosophila JW18 cells infected with Wolbachia
Knock-down reagent: long dsRNA against Drosophila genes, 0.25 µg dsRNA per well of a 384-well plate
Duration: 5 days
Conditions: cells persistently infected with Wolbachia before knock-down; no added drug
Detection: 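Automated imaging of bacterial rRNA staining divided by host cell count, reported as plate-normalised robust z-score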
Direction: Wolbachia per cell robust z: higher = more Wolbachia per host cell than the plate typical
Hit rule: 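Active if absolute robust z reaches 1.5 in two or more of three replicates, leaving out multi- or no-target dsRNAs, genes unexpressed in JW18 and A1 wells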
The deposit covers about 24,000 reagents; below is an unselected part of those that have a named target and a result. Over the whole deposit, about 1,210 (5%) are marked active. 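Inactive calls also include excluded dsRNAs with several or no targets, genes unexpressed in JW18, and well A1, regardless of score.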 Reagent sequences are not shown.

Uvrag [DRSC02932]
- Wolbachia per cell robust z, rep 1: 0.621
- Wolbachia per cell robust z, rep 2: 0.0741
- Wolbachia per cell robust z, rep 3: 0.862
- Call: inactive

RPA1 [DRSC16830]
- Wolbachia per cell robust z, rep 1: 0.742
- Wolbachia per cell robust z, rep 2: 1.3
- Wolbachia per cell robust z, rep 3: -0.133
- Call: inactive

Sfp53D [DRSC40620]
- Wolbachia per cell robust z, rep 1: -0.571
- Wolbachia per cell robust z, rep 2: 0.365
- Wolbachia per cell robust z, rep 3: -2.05
- Call: inactive

CR4575 [DRSC18372]
- Wolbachia per cell robust z, rep 1: -0.765
- Wolbachia per cell robust z, rep 2: -7.14
- Wolbachia per cell robust z, rep 3: -0.547
- Call: inactive

Prim2 [DRSC11610]
- Wolbachia per cell robust z, rep 1: -0.942
- Wolbachia per cell robust z, rep 2: 0.0745
- Wolbachia per cell robust z, rep 3: 0.537
- Call: inactive

CG34442 [DRSC38639]
- Wolbachia per cell robust z, rep 1: -0.57
- Wolbachia per cell robust z, rep 2: 0.225
- Wolbachia per cell robust z, rep 3: -0.95
- Call: inactive

PGRP-SB2 [DRSC11092]
- Wolbachia per cell robust z, rep 1: -0.179
- Wolbachia per cell robust z, rep 2: -1.26
- Wolbachia per cell robust z, rep 3: 0.618
- Call: inactive

CG15404 [DRSC00418]
- Wolbachia per cell robust z, rep 1: 0.898
- Wolbachia per cell robust z, rep 2: -0.454
- Wolbachia per cell robust z, rep 3: 0.485
- Call: inactive

CG6495 [DRSC01993]
- Wolbachia per cell robust z, rep 1: 0.328
- Wolbachia per cell robust z, rep 2: 0.567
- Wolbachia per cell robust z, rep 3: 0.45
- Call: inactive

CG6495 [DRSC29128]
- Wolbachia per cell robust z, rep 1: 0.479
- Wolbachia per cell robust z, rep 2: 0.381
- Wolbachia per cell robust z, rep 3: -0.613
- Call: inactive

Cda4 [DRSC20623]
- Wolbachia per cell robust z, rep 1: -1.17
- Wolbachia per cell robust z, rep 2: -1.05
- Wolbachia per cell robust z, rep 3: -0.285
- Call: inactive

Cda4 [DRSC20641]
- Wolbachia per cell robust z, rep 1: 0.584
- Wolbachia per cell robust z, rep 2: 0.0446
- Wolbachia per cell robust z, rep 3: 0.662
- Call: inactive

Cda4 [DRSC20642]
- Wolbachia per cell robust z, rep 1: 0.629
- Wolbachia per cell robust z, rep 2: 0.746
- Wolbachia per cell robust z, rep 3: 0.497
- Call: inactive

sens-2 [DRSC02613]
- Wolbachia per cell robust z, rep 1: 0.623
- Wolbachia per cell robust z, rep 2: 0.854
- Wolbachia per cell robust z, rep 3: 0.458
- Call: inactive

sens-2 [DRSC25026]
- Wolbachia per cell robust z, rep 1: 0.364
- Wolbachia per cell robust z, rep 2: 0.326
- Wolbachia per cell robust z, rep 3: 0.969
- Call: inactive

CG13040 [DRSC09921]
- Wolbachia per cell robust z, rep 1: -0.477
- Wolbachia per cell robust z, rep 2: -0.0572
- Wolbachia per cell robust z, rep 3: -1.21
- Call: inactive

CG13040 [DRSC28429]
- Wolbachia per cell robust z, rep 1: -0.00298
- Wolbachia per cell robust z, rep 2: -0.649
- Wolbachia per cell robust z, rep 3: -0.64
- Call: inactive
